Compound potency records, mixed from different reports. Data source: NIAID ChemDB in PubChem.

Common to all: growth or infection tests; agent: Herpes simplex virus 1; endpoint: MIC

Neighbouring rows are from separate reports.

CCn1nc(CC(=O)N/N=C/c2ccco2)nc1C ; strain: TK (KOS ACV) ; result: >400 µg/mL
Nc1ncnc2c1ncn2C[C@@H](CO)OCP(=O)(O)O ; strain: TK- ; result: 2 µg/mL
O=P1(O)OCC2O[C@@H](n3cnc4c(=S)nc[nH]c43)[C@H](O)C2O1 ; strain: HF ; result: 3.2 µg/mL
O=c1[nH]c(=O)n([C@@H]2O[C@H](CO)[C@@H](O)[C@@H]2O)cc1/C=C/Cl ; result: 0.1 µg/mL
CCc1cn([C@@H]2O[C@H](CO)[C@@H](O)[C@@H]2O)c(=O)[nH]c1=O ; strain: VR-3 ; result: 3.2 µg/mL
Nc1ccn(C[C@@H](CO)OCP(=O)(O)O)c(=O)n1 ; result: 4 µg/mL
O=c1[nH]c(=O)n([C@H]2C[C@H](O)[C@@H](CO)O2)cc1I ; strain: FORD ; result: 1.1 µg/mL
CCn1nc(-c2ccc(Cn3ccc4ccccc43)cc2)nc1C ; strain: KOS ; result: 80 µg/mL
O=c1[nH]c(=O)n([C@@H]2O[C@H](CO)[C@@H](O)[C@@H]2O)cc1/C=C/Br ; result: 0.032 µg/mL
NNC(=O)Cc1nc2n(n1)CCCCC2 ; strain: KOS ; result: >400 µg/mL
CCc1cn([C@@H]2O[C@H](CO)[C@@H](O)[C@@H]2F)c(=O)[nH]c1=O ; result: 0.024 µM
Cc1cn([C@@H]2O[C@H](CO)[C@@H](O)[C@@H]2O)c(=O)[nH]c1=O ; strain: VR-3 ; result: 1 µg/mL
O=P1(O)OCC2O[C@@H](n3cnc4c(SCc5ccccc5)ncnc43)[C@H](O)C2O1 ; strain: HF ; result: 3.2 µg/mL
O=c1ccn([C@@H]2O[C@H](CO)[C@@H](O)[C@@H]2F)c(=O)[nH]1 ; result: 0.035 µM
CCCCc1cn([C@@H]2O[C@H](CO)[C@@H](O)[C@@H]2O)c(=O)[nH]c1=O ; strain: VR-3 ; result: 100 µg/mL
Cc1nc(Cc2n[nH]c(=S)n2-c2ccccc2)nn1C ; strain: KOS ; result: 400 µg/mL
Cc1cn([C@@H]2O[C@H](CO)[C@@H](O)[C@@H]2O)c(=O)[nH]c1=O ; result: 1 µg/mL
Nc1nccc2c1ncn2[C@@H]1C=C(CO)[C@@H](O)[C@H]1O ; strain: KOS ; result: >400 µg/mL
Cc1nc(CC(=O)NN)nn1C ; strain: TK (KOS ACV) ; result: >400 µg/mL
O=c1[nH]c(=O)n([C@@H]2O[C@H](CO)[C@@H](O)[C@@H]2F)cc1I ; result: 0.025 µM
Nc1ncnc2c1ncn2[C@@H]1CC[C@@H](O)[C@H]1O ; strain: KOS ; result: >400 µg/mL
N[C@H]1[C@H](O)[C@H](n2cc(/C=C/Br)c(=O)[nH]c2=O)O[C@@H]1CO ; result: 0.3 µM
CCn1nc(CC(=O)NN=C(C)C)nc1C ; strain: KOS ; result: >400 µg/mL
O=c1[nH]c(=O)n([C@@H]2O[C@H](CO)[C@@H](O)[C@@H]2F)cc1/C=C/Br ; result: 0.4 µM
COc1ccc(-n2c(Cc3nc4n(n3)CCCC4)n[nH]c2=S)cc1 ; strain: TK (KOS ACV) ; result: 80 µg/mL